In assay [1] the target is high molecular weight glycoprotein gp240 on melanoma cells (human) (UniProt Q6UVK1). Nature of the assay: cell-based or functional assay.
For assay [2], the target named is high molecular weight glycoprotein gp240 on melanoma cells (human), Q6UVK1. Put plainly: cell-based or functional assay.

In assay [1], scfvMEL/rGel fusion construct yielded an I.C.50, 72 h growth inhibition of antigen-positive A375M melanoma cells of 100 nM.

B1: scfvMEL-CFR2025 fusion construct (protein)
chain: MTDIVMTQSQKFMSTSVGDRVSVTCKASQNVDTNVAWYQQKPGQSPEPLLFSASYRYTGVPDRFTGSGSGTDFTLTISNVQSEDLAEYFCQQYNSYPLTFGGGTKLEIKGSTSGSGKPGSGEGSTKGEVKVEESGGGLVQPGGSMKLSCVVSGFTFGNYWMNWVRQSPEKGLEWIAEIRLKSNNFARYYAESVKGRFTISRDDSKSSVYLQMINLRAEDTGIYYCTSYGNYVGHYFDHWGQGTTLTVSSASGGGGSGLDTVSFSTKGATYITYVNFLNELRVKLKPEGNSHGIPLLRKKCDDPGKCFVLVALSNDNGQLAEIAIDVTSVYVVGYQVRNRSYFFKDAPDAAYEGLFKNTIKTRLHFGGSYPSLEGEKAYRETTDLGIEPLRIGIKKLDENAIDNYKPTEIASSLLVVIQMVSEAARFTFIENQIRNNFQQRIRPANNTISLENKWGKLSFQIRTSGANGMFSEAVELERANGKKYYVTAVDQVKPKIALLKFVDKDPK
B1 showed an I.C.50, 72 h growth inhibition of antigen-positive A375M melanoma cells in assay [2] of 100 nM.

(Values after patent publication US20030176331A1.)
